Anti-infective test results gathered from many reports (values: NIAID ChemDB through PubChem).

Shared fields: tests in culture; organism: Herpes simplex virus 1; cell line: E6SM; read-out: EC50

ECn is the concentration giving n% inhibition of infection, replication or growth. Blank or dashed fields: not listed here. Neighbouring rows are from separate reports.

structure	strain or isolate	method	value
O=C(C1CCCCC1)N(O)c1ccc(Cl)cc1	KOS	cytopathic effect	>80 µg/mL
O=c1c2ncn(COC(CO)CO)c2nc2[nH]c(-c3ccccc3)cn12	KOS	cytopathic effect	0.02 µg/mL
OC[C@H]1O[C@@H](c2ccccc2)C[C@@H]1O	KOS	cytopathic effect	>400 µg/mL
CC1(CO)CCC(Cn2nnc3c(=O)[nH]c(N)nc32)C1(C)C	TK-/B2006	cytopathic effect	>400 µg/mL
CCC(Sc1ncnc2c1cnn2CCCCO)C(N)=O	VWM1837 (TK-)	cytopathic effect	>400 µg/mL
CO[C@H](CO)[C@@H](O)CCn1cc(C)c(=O)[nH]c1=O	B2006 (TK-)	cytopathic effect	>400 µg/mL
CCCCOC[C@H]1O[C@@H]2CC(C)(C)C[C@@H]2[C@H]1OCCCC	KOS	cytopathic effect	>80 µg/mL
OC[C@H]1O[C@@H](c2cc(F)c(F)cc2F)C[C@@H]1O	KOS/ACV-R	cytopathic effect	>400 µg/mL
CC1=CC(=O)N(c2ccccc2)S(=O)(=O)N1COCCO	McIntyre	-	>400 µg/mL
OCCCCn1nncc1Cn1ncc2c(SCc3ccccc3)ncnc21	B2006 (TK-)	-	>400 µg/mL
OC[C@H]1O[C@@H](c2cc(C(O)C(I)I)c(F)cc2F)C[C@@H]1O	TK-deficient acyclovir-resistant	cytopathic effect	>80 µg/mL
CC(Sc1ncnc2c1cnn2COCC(O)CO)C(N)=O	VWM1837 (TK-)	cytopathic effect	>400 µg/mL
CC(=O)OCCOCN1C=CC(=O)N(COCCO)S1(=O)=O	KOS	-	>400 µg/mL
OC[C@H]1O[C@@H](c2cc(C#CI)c(F)cc2F)C[C@@H]1O	KOS ACV-R (TK-)	cytopathic effect	>400 µg/mL
Nc1ncnc2c1ncn2CC[C@H](O)CCO	B2006 (TK-)	cytopathic effect	>400 µg/mL
Cc1cc([C@@H]2C[C@H](O)[C@@H](CO)O2)c(F)cc1F	F	cytopathic effect	>400 µg/mL
O=c1[nH]cnc2c1cnn2Cc1cn(CCCCO)nn1	B2006 (TK-)	-	>400 µg/mL
CC(=O)OCCOCN1C=CC(=O)NS1(=O)=O	McIntyre	-	>400 µg/mL
O=C(CC1CCCCC1)N(O)c1ccc(Cl)cc1	KOS	cytopathic effect	80 µg/mL
Nc1nc(Cl)c2ncn([C@H]3CO[C@@H](CO)C3)c2n1	KOS	cytopathic effect	300 µg/mL
CSc1ncnc2c1cnn2Cc1cnnn1CCCCO	KOS	-	>400 µg/mL
CCOC(=O)C1=CN(COCCO)S(=O)(=O)NC1=O	F	-	>400 µg/mL
C=Cc1cc([C@H]2C[C@H](O)[C@@H](CO)O2)c(F)cc1F	KOS ACV-R (TK-)	cytopathic effect	>400 µg/mL
Nc1nc(N)c2ncn([C@H]3CO[C@H](CO)[C@@H](O)C3)c2n1	KOS	cytopathic effect	>20 µg/mL
Nc1nc2c(ncn2[C@@H]2C=C[C@H](CO)[C@@H](O)C2)c(=O)[nH]1	KOS	cytopathic effect	0.002 µg/mL
CC(=O)OCCOCN1C=C(C#N)C(N)=NS1(=O)=O	F	-	>400 µg/mL
CCc1nc(-n2c(C)nc3ccc(Br)cc3c2=O)nc(N)c1-c1ccc(Cl)cc1	KOS	cytopathic effect	>16 µg/mL
OC[C@H]1O[C@H](c2cc(Cl)c(F)cc2F)C[C@@H]1O	KOS/ACV-R	cytopathic effect	>400 µg/mL
NC(=O)CSc1ncnc2c1cnn2COCC(O)CO	VWM1837 (TK-)	cytopathic effect	>400 µg/mL
Cc1cn([C@@H]2CO[C@H](CO)[C@@H](O)C2)c(=O)[nH]c1=O	TK-/TK+ (VMW 1837)	cytopathic effect	>20 µg/mL
O=c1[nH]c(=O)n([C@H]2C[C@H](O)[C@@H](CO)O2)cc1/C=C/Br	VMW1837 (TK-/TK+)	cytopathic effect	>80 µg/mL
Cc1cc([C@@H]2C[C@H](O)[C@@H](CO)O2)c(F)cc1Cl	KOS	cytopathic effect	9.6 µg/mL
N#CC1=CN(COCCO)S(=O)(=O)N=C1N	VMW1837 (TK-)	-	>400 µg/mL
Cc1nc2ccc(Br)cc2c(=O)n1-c1nnc(-c2cccc(Cl)c2Cl)c(N)n1	KOS	cytopathic effect	>3.2 µg/mL
CC1(CO)CCC(Cn2nnc3c(N)nc(N)nc32)C1(C)C	TK-/B2006	cytopathic effect	150 µg/mL
O=C1C=CN(COCCO)S(=O)(=O)N1COCCO	KOS	-	>400 µg/mL
[N-]=[N+]=NC(CBr)c1cc([C@H]2C[C@H](O)[C@@H](CO)O2)c(F)cc1F	McIntyre	cytopathic effect	>400 µg/mL
CO[C@H](CO)[C@@H](O)CCn1cnc2c(=O)[nH]c(N)nc21	McIntyre	cytopathic effect	>400 µg/mL
CCc1nc(-n2c(-c3ccccc3)nc3ccc(Br)cc3c2=O)nc(N)c1-c1ccc(Cl)cc1	KOS	cytopathic effect	>16 µg/mL
Nc1ncnc2c1cnn2Cc1cn(CCCCO)nn1	B2006 (TK-)	-	>400 µg/mL
COC(CI)c1cc([C@H]2C[C@H](O)[C@@H](CO)O2)c(F)cc1F	KOS (TK-)	cytopathic effect	>80 µg/mL
Cc1cc([C@H]2C[C@H](O)[C@@H](CO)O2)c(F)cc1F	KOS/ACV-R	cytopathic effect	>400 µg/mL
NC(=O)CSc1ncnc2c1cnn2COCCO	VWM1837 (TK-)	cytopathic effect	>400 µg/mL
CC1(CO)CCC(Cn2cnc3c(N)nc(N)nc32)C1(C)C	TK-/B2006	cytopathic effect	>100 µg/mL
Nc1nc2c(ccn2[C@H]2CO[C@@H](CO)C2)c(=O)[nH]1	KOS	cytopathic effect	150 µg/mL
O=[N+]([O-])c1cc([C@H]2C[C@H](O)[C@@H](CO)O2)c(F)cc1F	McIntyre	cytopathic effect	>400 µg/mL
CC[Si]1(C(C)C)O[C@H]2[C@@H](O)[C@H](c3ccccc3)O[C@@H]2CO[Si](C(C)C)(C(C)C)O1	KOS	cytopathic effect	>3.2 µg/mL
OC[C@H]1O[C@@H](c2cc(I)c(F)cc2F)C[C@@H]1O	F	cytopathic effect	>400 µg/mL
CO[C@H](CO)[C@@H](O)CCn1cnc2c(N)ncnc21	F	cytopathic effect	>400 µg/mL
Cc1cn([C@H]2CO[C@H](CO)[C@@H](O)C2)c(=O)[nH]c1=O	KOS	cytopathic effect	>20 µg/mL

Repeating the first 4 entries:

structure | strain or isolate | method | value
O=C(C1CCCCC1)N(O)c1ccc(Cl)cc1 | KOS | cytopathic effect | >80 µg/mL
O=c1c2ncn(COC(CO)CO)c2nc2[nH]c(-c3ccccc3)cn12 | KOS | cytopathic effect | 0.02 µg/mL
OC[C@H]1O[C@@H](c2ccccc2)C[C@@H]1O | KOS | cytopathic effect | >400 µg/mL
CC1(CO)CCC(Cn2nnc3c(=O)[nH]c(N)nc32)C1(C)C | TK-/B2006 | cytopathic effect | >400 µg/mL